Data from patent publication US5147865A, “Phosphonopyrrolidine- and piperidine-containing pseudopeptides of the statin type, a process for their preparation and their use as medicaments against retroviruses” (Bayer Aktiengesellschaft, priority 1990, dated 1992).

These compounds were tested against HIV protease (Human immunodeficiency virus type 1 group M subtype B, UniProt P04585) (assay: HIV-specific protease enzyme test (RP-HPLC analysis of synthetic peptide cleavage)). Details: read-out: IC50 (RP-HPLC); purified HIV protease, synthetic peptide imitating a Gag precursor cleavage site; concentration causing 50% inhibition of protease activity.
Experimental: This is confirmed using an HIV-specific protease enzyme test.
The results for the examples listed below were determined by the HIV test system described in the following literature reports [cf. Hansen, J., Billich, S., Schulze, T., Sukrow, S. and Molling, K. (1988), EMBO Journal, Vol. 7, No. 6, pages 1785-1791]: purified HIV protease was incubated with synthetic peptide which imitated a cleavage site in the Gag precursor protein and represented an in vivo cleavage site of the HIV protease. The resulting cleavage products of the synthetic peptide were analysed by means of reverse phase high performance liquid chromatography (RP-HPLC). The IC50 values given relate to the substance concentration which causes a 50% inhibition of protease activity under the abovementioned test conditions.

In order of falling IC50:
1. CCOP(=O)(OCC)C1CCCN1C(=O)C[C@H](O)[C@H](CC1CCCCC1)NC(=O)[C@@H](NC(=O)OC(C)(C)C)C(C)C (stereo partly shown)  100 µM
2. CCOP(=O)(OCC)C1CCCN1C(=O)C[C@H](O)[C@H](CC1CCCCC1)NC(=O)[C@H](CC(N)=O)NC(=O)[C@H](Cc1ccccc1)NC(=O)OC(C)(C)C (stereo partly shown)  100 µM
3. CCOP(=O)(OCC)C1CCCN1C(=O)C[C@H](O)[C@H](CC1CCCCC1)NC(=O)[C@@H](NC(=O)c1cc2ccccc2[nH]1)C(C)C (stereo partly shown)  10 µM
4. CCOP(=O)(OCC)C1CCCN1C(=O)C[C@@H](O)[C@H](CC1CCCCC1)NC(=O)[C@@H](NC(=O)c1ccc2ccccc2c1)C(C)C (stereo partly shown)  10 µM
5. CCOP(=O)(OCC)C1CCCN1C(=O)C[C@H](O)[C@H](CC1CCCCC1)NC(=O)[C@H](Cc1ccccc1)NC(=O)Nc1ccc(Cl)cc1 (stereo partly shown)  10 µM
6. CCOP(=O)(OCC)C1CCCN1C(=O)C[C@@H](O)[C@H](CC1CCCCC1)NC(=O)[C@@H](NC(=O)c1cc2ccccc2[nH]1)C(C)C (stereo partly shown)  5 µM
7. CCOP(=O)(OCC)C1CCCN1C(=O)C[C@H](O)[C@H](CC1CCCCC1)NC(=O)[C@@H](NC(=O)[C@H](Cc1ccccc1)NS(=O)(=O)c1ccc(C)cc1)C(C)C (stereo partly shown)  1 µM
8. CCOP(=O)(OCC)C1CCCN1C(=O)C[C@H](O)[C@H](CC1CCCCC1)NC(=O)[C@@H](NC(=O)[C@H](Cc1ccccc1)NC(=O)CC(C)(C)C)C(C)C (stereo partly shown)  0.5 µM
9. CCOP(=O)(OCC)C1CCCN1C(=O)C[C@H](O)[C@H](CC1CCCCC1)NC(=O)[C@@H](NC(=O)[C@H](Cc1ccccc1)NC(C)=O)C(C)C (stereo partly shown)  0.1 µM

Same assay, conditions: read-out: IC50 (RP-HPLC); purified HIV protease, synthetic peptide imitating a Gag precursor cleavage site; concentration causing 50% inhibition of protease activity; tested form: 2HCl

For CCOP(=O)(OCC)C1CCCN1C(=O)C[C@H](O)[C@H](CC1CCCCC1)NC(=O)[C@@H](N)C(C)C (stereo partly shown), the IC50 was 10 µM.
